Measured values: PMC7915185 (Molecules, 2021)

The chains behind the UniProt entries cited, without tags or fusion partners. Residues count along the entry.
UniProt P03454, 18-565: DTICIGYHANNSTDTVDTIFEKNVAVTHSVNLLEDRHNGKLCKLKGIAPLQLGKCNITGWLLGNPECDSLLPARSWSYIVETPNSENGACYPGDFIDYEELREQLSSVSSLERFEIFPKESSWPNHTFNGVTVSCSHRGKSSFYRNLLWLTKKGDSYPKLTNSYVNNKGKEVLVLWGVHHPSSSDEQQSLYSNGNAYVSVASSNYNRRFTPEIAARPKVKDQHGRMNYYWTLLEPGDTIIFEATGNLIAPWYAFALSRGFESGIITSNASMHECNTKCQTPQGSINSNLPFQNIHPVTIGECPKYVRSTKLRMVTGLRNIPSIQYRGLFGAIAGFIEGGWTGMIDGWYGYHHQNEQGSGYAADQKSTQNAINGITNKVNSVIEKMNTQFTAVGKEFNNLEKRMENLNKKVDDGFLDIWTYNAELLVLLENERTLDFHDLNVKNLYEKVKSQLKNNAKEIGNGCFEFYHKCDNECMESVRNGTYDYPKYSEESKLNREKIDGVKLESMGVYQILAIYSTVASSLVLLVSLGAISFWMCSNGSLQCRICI

Molecular target: T1, H1N1 (A/WSN/1933) hemagglutinin (HA) protein (Influenza A virus, UniProt P03454)
T1 construct: purchased Sino Biological Inc. (Beijing, China)
Format: binding, influenza virus H1N1 (A/WSN/1933)
Settings: pH 7.4

Sialylglycopeptide [SGP]
thermodynamic dissociation constant KD: no affinity
